Test results reported in PMC3037356, “BosR (BB0647) Controls the RpoN-RpoS Regulatory Pathway and Virulence Expression in Borrelia burgdorferi by a Novel DNA-Binding Mechanism” (PLoS Pathogens, 2011).
For at least one entry, the source does not settle the construct or the ends of the probe. At least one verdict was read from the data and is not stated in words by the source.

biological target: BosR (rBosR) (UniProt O51592); test: EMSA; conditions: 20 mM Hepes pH 7.5, 50 mM KCl, 1 mM MgCl2, 1 mM DTT, 5% glycerol, 100 ug/ml BSA, 50 ug/ml poly[d(A-T)], 30 fmol probe in 20 ul, 37 C 30 min; recombinant …; residues 1-176; label: digoxigenin 3' end

Row | Sequence | binding result
1 | TGGTTTAGATTTAATTTTTTTCTCAATTCAGCAATTTCTGAATATAGAATTTTCATATCT (double strand) [ZM215 (PnapA1)] | binds
2 | AGTGTAAAAATTATAATCAATTTTTTCATTAAATATCCTTTTTATTTATTATGGTATTAA (double strand) [ZM217 (PnapA2)] | binds
3 | ATTTTATATCCTATTTAGTTTAAAACCATTTTTAAATTAAATTGGCACAGTTTTTGCATG (double strand) [ZM212 (BS2 5')] | binds
